Results deposited as PubChem BioAssay AID1259414 (Drosophila RNAi Screening Center, 2018)

Test: 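Genome-wide screen for host control of endosymbiont load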 (primary screen)
System: Drosophila JW18 cells infected with Wolbachia
Knock-down reagent: long dsRNA against Drosophila genes, 0.25 µg dsRNA per well of a 384-well plate
Timing: 5 days
Challenge: cells persistently infected with Wolbachia before knock-down; no added drug
Detection: 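Automated imaging of bacterial rRNA staining divided by host cell count, reported as plate-normalised robust z-score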
Reading the numbers: Wolbachia per cell robust z: higher = more Wolbachia per host cell than the plate typical
Hit rule: 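Hit when robust z is 1.5 or more, or -1.5 or less, in at least two of three replicates; excludes dsRNAs with several or no targets, genes not expressed in JW18 and well A1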
The screen tested about 24,000 reagents; shown is an unselected part of those with a known target gene and a result. Over the whole deposit, about 1,210 (5%) are marked active. 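Inactive calls also include excluded dsRNAs with several or no targets, genes unexpressed in JW18, and well A1, regardless of score.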 Reagents against one gene are numbered here.

| Gene | reagent no. | Wolbachia per cell robust z, rep 1 | Wolbachia per cell robust z, rep 2 | Wolbachia per cell robust z, rep 3 | Call |
| --- | --- | --- | --- | --- | --- |
| CG12682 | 1 | -0.511 | -0.64 | -0.119 | inactive |
| CG4069 | 1 | -0.727 | -1.64 | -0.374 | inactive |
| CG8405 | 1 | 0.421 | -9.5 | -0.3 | inactive |
| CG8405 | 2 | -3.05 | -0.911 | -1.71 | active |
| CG13658 | 1 | 1.11 | 0.67 | 0.459 | inactive |
| CG13658 | 2 | 0.466 | -0.249 | -0.252 | inactive |
| CG32119 | 1 | 0.718 | 0.465 | 0.334 | inactive |
| CG32119 | 2 | -1.4 | -0.0719 | 0.066 | inactive |
| CG32119 | 3 | -1.76 | -1.75 | -2.16 | inactive |
| mey | 1 | -0.81 | -7.59 | -3.36 | inactive |
| mey | 2 | -5.12 | -0.0344 | -0.388 | inactive |
| sphinx1 | 1 | 0.562 | -1.92 | 1.09 | inactive |
| sphinx1 | 2 | 0.733 | -1.2 | -0.248 | inactive |
| nAChRalpha6 | 1 | -1.57 | -1.44 | -2.88 | inactive |
| nAChRalpha6 | 2 | -2.09 | 0.764 | -1.22 | inactive |
| CG14089 | 1 | -0.785 | 0.503 | -0.686 | inactive |
| CG14089 | 2 | 0.558 | 0.483 | 1.02 | inactive |
| CG9265 | 1 | 0.31 | 0.428 | -0.253 | inactive |
| CG9265 | 2 | -1.31 | -0.983 | -0.051 | inactive |
| lola | 1 | -9.16 | -0.603 | 1.74 | inactive |
| lola | 2 | 1.17 | 0.552 | 0.343 | inactive |
| lola | 3 | 1.28 | -0.444 | 0.344 | inactive |
| lola | 4 | 0.123 | 0.152 | 2.13 | inactive |
| lola | 5 | 0.695 | 0.328 | 0.558 | inactive |
| lola | 6 | 0.54 | -0.0553 | -0.291 | inactive |
| lola | 7 | 0.487 | -0.46 | -0.674 | inactive |
| lola | 8 | 0.564 | 0.406 | -1.26 | inactive |
| lola | 9 | -0.283 | -0.515 | -1.39 | inactive |
| lola | 10 | 0.72 | -0.112 | 0.284 | inactive |
| lola | 11 | 1.18 | 2.17 | 1.87 | inactive |
| Pep | 1 | 0.0286 | 0.455 | 0.338 | inactive |
| SLC22A | 1 | 0.0669 | 0.239 | -0.0332 | inactive |
| SLC22A | 2 | -0.524 | 0.504 | -0.744 | inactive |
| CG31013 | 1 | 0.35 | -0.0557 | 0.895 | inactive |
| CG14043 | 1 | -0.524 | -0.683 | -2.96 | inactive |
| CG14043 | 2 | 1.28 | 0.416 | 1.03 | inactive |
| Galphao | 1 | -0.173 | 0.301 | -0.00931 | inactive |
| Galphao | 2 | 0.236 | 0.149 | -0.225 | inactive |
| CG17110 | 1 | -3 | 0.179 | -0.22 | inactive |
| IM33 | 1 | 2.23 | -0.476 | 0.262 | inactive |
| IM33 | 2 | -1.05 | -1.32 | -1.21 | inactive |
| Or23a | 1 | -0.213 | 0.03 | 0.258 | inactive |
| spaw | 1 | -0.0455 | -1.63 | 0.126 | inactive |
| stck | 1 | -3.27 | 1.08 | 0.528 | inactive |
| Vps52 | 1 | 1.14 | 0.926 | 0.408 | inactive |
| Pgant6 | 1 | -1.52 | -1.23 | -0.768 | inactive |
| Pgant6 | 2 | -6.2 | -0.185 | 0.0706 | inactive |
